Experimental data as given in the supplement of paper PMC3578754.
Fold change is the IC50 on the isolate divided by the IC50 on a reference virus; 1 = unchanged, higher = more resistant. Changes are given against the subtype B consensus. No active / inactive call. The values were gathered from many studies (numbered anew) with different assays, which the source does not name. Most viruses are clinical isolates; some are laboratory strains or clones with known resistance changes. Isolates with mixed residues are left out; stretches that were not sequenced show no change. Round top values that many isolates share are read here as limits; other very high values and 0.1 may be limits too. The protease changes I3V and N37S, insertions and deletions cannot be read from the source.

How the values were obtained:
Assay in all cases: fold change of IC50 against reference virus; higher = more resistant; Cell-culture drug susceptibility tests of virus bearing the protease of each isolate, gathered from many studies.
[1] = compound: Cc1cccc(C)c1OCC(=O)N[C@@H](Cc1ccccc1)[C@@H](O)C[C@H](Cc1ccccc1)NC(=O)[C@H](C(C)C)N1CCCNC1=O [lopinavir]
[2] = compound: CC(C)c1nc(CN(C)C(=O)N[C@H](C(=O)N[C@@H](Cc2ccccc2)C[C@H](O)[C@H](Cc2ccccc2)NC(=O)OCc2cncs2)C(C)C)cs1 [ritonavir]
[3] = compound: CC(C)(C)NC(=O)[C@@H]1C[C@@H]2CCCC[C@@H]2CN1C[C@@H](O)[C@H](Cc1ccccc1)NC(=O)[C@H](CC(N)=O)NC(=O)c1ccc2ccccc2n1 [saquinavir]
[4] = compound: Cc1c(O)cccc1C(=O)N[C@@H](CSc1ccccc1)[C@H](O)CN1C[C@H]2CCCC[C@H]2C[C@H]1C(=O)NC(C)(C)C [nelfinavir]
[5] = compound: COC(=O)N[C@H](C(=O)N[C@@H](Cc1ccccc1)[C@@H](O)CN(Cc1ccc(-c2ccccn2)cc1)NC(=O)[C@@H](NC(=O)OC)C(C)(C)C)C(C)(C)C [atazanavir]
[6] = compound: CC(C)(C)NC(=O)[C@@H]1CN(Cc2cccnc2)CCN1C[C@@H](O)C[C@@H](Cc1ccccc1)C(=O)N[C@H]1c2ccccc2C[C@H]1O [indinavir]

Test System	fold change of IC50 against reference virus [1]	fold change of IC50 against reference virus [2]	fold change of IC50 against reference virus [3]	fold change of IC50 against reference virus [4]	fold change of IC50 against reference virus [5]	fold change of IC50 against reference virus [6]
HIV-1 isolate 138 (protease changes: L10I I15V K20R M36I N37D R41K M46I I54V I62V L63P I64V I72V L76V V82A I93L, study 101)	86	46	1.3	10	0.8	–
HIV-1 isolate 303 (protease changes: L10F K20I L63A A71V G73S I84V L90M, study 104)	30	–	100	68	100	76
HIV-1 isolate 307 (protease changes: L10I I13V K14R L19I V32I E35D N37Q M46I F53L I54M R57K L63P A71V G73S V77I L89V L90M, study 101)	2.5	9.9	3.1	14	10	–
HIV-1 isolate 308 (protease changes: L10I K43T M46L G48V I54V L63P I72V V77I V82A L90M, study 104)	70	–	100	63	100	77
HIV-1 isolate 315 (protease changes: T4S M46I I50V L63P H69Q L76V, study 101)	3.4	1.6	0.3	1.3	0.4	–
HIV-1 isolate 368 (protease changes: L10V K20R V32I L33F E35D M36L N37D M46I I47V I54L L63P I64M C67E A71V I72V V82A L89V L90M I93L, study 15)	198	400	11	–	53	26
HIV-1 isolate 625 (protease changes: L10I I15V G17D M46I L63P G73S I84V L90M, study 104)	15	–	37	34	59	50
HIV-1 isolate 647 (protease changes: L10I I13V K20R E35D M36I I54V L63P I64V V82A L90M, study 24)	–	93	4	18	5	8
HIV-1 isolate 653 (protease changes: T12S I15V L19I K20R E35D M36I R41K I50L H69K L89M I93L, study 115)	–	0.3	0.3	0.4	9.5	0.4
HIV-1 isolate 686 (protease changes: none, study 43)	–	1	1	1	1	1
HIV-1 isolate 759 (protease changes: I13V E35D I62V L63P, study 115)	–	0.8	0.8	1.3	0.8	0.8
HIV-1 isolate 820 (protease changes: I13V I15V D30N E35D M36I K45Q R57K L63P E65D I72T, study 115)	–	1	0.8	4.6	1.4	0.9
HIV-1 isolate 850 (protease changes: L10I K20I E35D M36I R41K I54V L63P A71V G73S I84V L90M, study 104)	50	–	75	100	100	100
HIV-1 isolate 899 (protease changes: M46I V82F I84V L90M, study 43)	–	71	8	22	7	29
HIV-1 isolate 900 (protease changes: L10I I54V L63P A71V V77I V82A I93L, study 24)	–	40	4	19	6	16
HIV-1 isolate 931 (protease changes: W6R L10I G16A L33F G48V I54M L63P A71V V77I V82A I84V L90M I93L C95F, study 104)	27	–	100	29	100	60
HIV-1 isolate 1016 (protease changes: V32I M46I A71V N88S, study 43)	–	3	2	12	12	4
HIV-1 isolate 1025 (protease changes: T12S L19Q K20R M36I L63P I72M V77I, study 115)	–	0.9	0.6	0.8	0.7	0.7
HIV-1 isolate 1033 (protease changes: L10I M46I I54V L63P A71V G73T V82T L90M, study 24)	–	77	14	37	29	41
HIV-1 isolate 1076 (protease changes: L10I I15V L19P K20I E35D M36I R41K I62V L63P A71V G73S I84V L90M, study 83)	–	29	132	42	21	24
HIV-1 isolate 1156 (protease changes: L10I I13V K20I L33I E35D M36I I54V Q58E L63P I66V A71V V82T L90M, study 24)	–	90	40	101	82	78

Test System	fold change of IC50 against reference virus [1]	fold change of IC50 against reference virus [2]	fold change of IC50 against reference virus [3]	fold change of IC50 against reference virus [4]	fold change of IC50 against reference virus [5]	fold change of IC50 against reference virus [6]
HIV-1 isolate 1177 (protease changes: L10F I13V D30N L33I E35D M36I N37D L63P I64V H69Y A71V V77I N88D, study 115)	–	1.3	2.4	83	4.1	2.4
HIV-1 isolate 1215 (protease changes: M46L G48V L63P T74S V77I V82A, study 104)	4	–	37	12	42	18
HIV-1 isolate 1222 (protease changes: E35D M36I R41K R57K I62V L63P V77I I93L, study 115)	–	1	0.7	1.5	0.7	0.8
HIV-1 isolate 1235 (protease changes: D30N M46I I64V V77I, study 24)	–	1	0.6	43	2	2
HIV-1 isolate 1275 (protease changes: I15V K20R E35D M36I I54V I62V L63Q I64V V82A L90M, study 24)	–	58	3	11	4	6
HIV-1 isolate 1280 (protease changes: I13V M46I D60E L63P I64V V77I L90M I93L, study 115)	–	8.2	2.1	23	2.1	4.6
HIV-1 isolate 1286 (protease changes: I13V K20R D30N E35D M36I I54V I62V L63P A71V N88D L90M, study 24)	–	54	118	479	41	17
HIV-1 isolate 1307 (protease changes: R57K I62V L63P I64L H69Q V77I I93L, study 115)	–	1.2	0.7	1.2	1.1	1
HIV-1 isolate 1325 (protease changes: T12S I15V L19I M36I R41K K45N I50L L63P H69K L89M I93L, study 115)	0.3	–	–	–	8.6	–
HIV-1 isolate 1343 (protease changes: L10I I13V D30N E35D N37Y R41K M46I L63Q I64V I72V V77I I85V N88S, study 115)	–	1.6	1	7.4	2.7	1.8
HIV-1 isolate 1389 (protease changes: V11I I15V G16A D30N K43R L63P H69K I93L, study 115)	–	0.6	0.5	14	1.8	0.9
HIV-1 isolate 1430 (protease changes: V32I L33F M46I A71V I84V N88S, study 43)	–	54	2	21	183	36
HIV-1 isolate 1451 (protease changes: I13V K14R K20I E35D R41K H69K V82I I84C L89M, study 115)	–	9.9	18	59	3.4	1.3
HIV-1 isolate 1456 (protease changes: I13V I15V D30N E35D M36I K45Q R57K L63P, study 115)	–	0.8	1	34	2.4	1
HIV-1 isolate 1459 (protease changes: D30N M46I, study 43)	–	1	1	35	3	3
HIV-1 isolate 1506 (protease changes: L10F T12A I13V D30N L33I E35D M36I F53L I54L D60E I62V L63P I66V A71T I84V I85V N88D I93L, study 115)	–	2.8	6.9	72	12	2.8
HIV-1 isolate 1530 (protease changes: I13V K14R K20I E35D M36I R41K M46I H69K V82I L89M L90M, study 115)	–	13	3.5	15	3.8	2.6
HIV-1 isolate 1557 (protease changes: none, study 43)	–	1	1	1	1	1
HIV-1 isolate 1575 (protease changes: L10I I15V K20R E35D M36I R41K I54V L63P A71V I72V G73S V82T I85V L90M, study 104)	30	–	100	82	100	90
HIV-1 isolate 1617 (protease changes: T12S I13V K14T L19V D30N L33V M36I K45Q I64V, study 115)	–	0.3	0.3	13	0.8	0.4
HIV-1 isolate 1624 (protease changes: L10F K20R D30N E35D M36V N37D L63P H69Y K70E A71V V77I I84V N88D, study 115)	–	13	33	232	49	8.2
